A mixed list of measured activities; the numbers were collected in NIAID ChemDB.

Shared fields: cytotoxicity tests; read-out: CC50

Blank or dashed fields: not listed here. Lines come from different laboratories, so protocols vary. CCn is the concentration with n% toxicity to the cells.

| compound | method | cells | value |
|---|---|---|---|
| COC1=CCC(C2C3(CO)C4N(Cc5ccc(OC)cc5)C5C6(CO)C(c7ccc(OC)cc7)C4(CO)C3N(Cc3ccc(OC)cc3)C6C25CO)C=C1 |  | EPG85-257P | 23.8 µM |
| CS(=O)(=O)C1(c2ccc(C(=O)NC34CC(c5cnn(-c6ccc(Cl)cc6)n5)(C3)C4)o2)CC1 | absorbance | Primary human hepatocytes | 149 µM |
| O=C(NCCCl)Oc1ccc(Cl)cc1C(=O)Nc1ccc(Cl)c(Cl)c1 | MTT | Mono Mac 6 | 4.6 µM |
| OCC12C(c3ccccc3)C3(CO)C4N(Cc5ccccc5)C1C1(CO)C(C5C=CC=CC5)C4(CO)C3N(Cc3ccccc3)C21 |  | EPG85-257DB | 29.4 µM |
| CS(=O)(=O)Cc1nsc(C(=O)NC23CC(c4nc(-c5ccc(Cl)cc5)no4)(C2)C3)n1 | absorbance | Primary human hepatocytes | >22.73 µM |
| CS[C@@]1(Cc2ccccc2)NC(=O)[C@](O)(Cc2ccccc2)NC1=O | luminescence | 293T | >100 µM |
| OC[C@H]1O[C@@H](n2ccc3c(-c4cccc5c4oc4ccccc45)nc(Cl)nc32)C(O)C1O | MTT | K562 leukemia cells | >50 µM |
| O=c1[nH]c(=O)n([C@H]2C[C@H](O)[C@@H](CO)O2)cc1I |  | HELF | 8 µg/mL |
| CS(=O)(=O)C1(c2nsc(C(=O)NC34CC(c5ccn(-c6ccc(Cl)cc6)n5)(C3)C4)n2)CC1 | absorbance | Primary human hepatocytes | >111 µM |
| O=C(Nc1ccc(Cl)c(Cl)c1)c1cc(Cl)ccc1O | MTT | Mono Mac 6 | 3.6 µM |
| CS[C@@]12CC3C(=O)CC[C@H](O)[C@H]3N1C(=O)[C@@]13C[C@@H]4[C@@H]([C@@H](O)C=C[C@@H]4S1)N3C2=O | luminescence | 293T | >100 µM |
| CCOC(OCC)C1=NCCc2cc(OC)c(OC)cc21 |  | HEK 293 | <7.5 µM |
| COc1ccc(N(C)C(=O)[C@H](Cc2ccccc2)NC(=O)c2cc(Br)cc(C(=O)N[C@@H](Cc3ccccc3)C(=O)N(C)c3ccc(OC)cc3)c2)cc1 | XTT | MT-2 | 100 µM |
| CCOC(=O)CCCCCOc1cccc(CN(C(=O)c2ccc(-c3cccc(N(C)C)c3)cc2)C(C)C)c1 |  | HEK 293 | >20 µM |
| CN(C(=O)[C@H](Cc1ccccc1)Nc1ncc(-c2cnc(N[C@@H](Cc3ccccc3)C(=O)N(C)c3ccc4scnc4c3)nc2)cn1)c1ccc2scnc2c1 | XTT | MT-2 | 100 µM |
| OC[C@H]1O[C@@H](n2ccc3c(-c4ccco4)nc(F)nc32)C(O)C1O | MTT | CEM-DNR leukemia cells | 47.2 µM |
| COc1ccccc1N1CCN(C(=O)CNc2ccc(S(=O)(=O)/N=C3\NC(=O)/C(=C/c4ccc(-c5ccccc5)cc4)S3)cc2)CC1 | MTS | Huh 5-2 | >75 µM |
| C=CCN(C(=O)[C@H](Cc1cc(F)cc(F)c1)NS(=O)(=O)NS(=O)(=O)N[C@@H](Cc1cc(F)cc(F)c1)C(=O)N(CC=C)c1ccc(OC)cc1)c1ccc(OC)cc1 | XTT | MT-2 | 100 µM |
| CCCCC(=O)OC1CC(OC(C)C(C)C(O)C(C)C(O)C(C)C2OC(=O)/C=C/CC(O)CC(O)CC(O)CCC(C)C(O)C[C@@]3(O)O[C@H](CC(O)CC(OC(=O)CC(=O)O)CCCC(O)C4OC4C2C)C[C@H](O)[C@H]3O)OC(C)C1O |  | KELA | >100 µg/mL |
| OC[C@H]1O[C@@H](n2ccc3c(-c4cc5ccccc5o4)nc(F)nc32)C(O)C1O | MTT | CCRF-CEM leukemia cells | 38.1 µM |
| COc1ccc(/C=C2\S/C(=N/S(=O)(=O)c3ccc(Cl)cc3)NC2=O)cc1 | MTS | Huh 5-2 | 71.07 µM |
| CN(C(=O)[C@H](Cc1cc(F)cc(F)c1)NC(=O)c1cccc(S(=O)(=O)N[C@@H](Cc2cc(F)cc(F)c2)C(=O)N(C)c2ccc3scnc3c2)c1)c1ccc2scnc2c1 | XTT | MT-2 | 100 µM |
| Nc1nc2c(sc(=O)n2C/C=C\CO)c(=O)[nH]1 |  | CFU-GM | 85 µM |
| Cc1[nH]c2ccccc2c1CCNCc1ccc(/C=C/C(=O)NO)cc1 | fluorescence | J-Lat 9.2 | >5 µM |
| CC(=O)OCC(C)(O)C(C)C(C)C(OC(C)=O)C1OC12C(O)CC1C3CCC4CC(=O)CCC4C3CCC12COC(C)=O | MTT | P-388 | >50 µg/mL |
| CC(C)(c1cccc(C(=O)NC23CC(c4nc(-c5ccc(Cl)cc5)no4)(C2)C3)c1)S(C)(=O)=O | absorbance | Primary human hepatocytes | 11.94 µM |
| CS[C@@]12C[C@@H]3C(=O)C=C[C@H](O)[C@H]3N1C(=O)[C@]1(SC)CC3=CC=C[C@H](O)[C@H]3N1C2=O | luminescence | 293T | >100 µM |
| O=C(NCCCl)Oc1ccc(Cl)cc1C(=O)Nc1ccc(C(=O)c2ccccc2)cc1 | MTT | Mono Mac 6 | 37.8 µM |
| CC(C)N(Cc1cccc(OCCCCCC(=O)OC(=O)O)c1)C(=O)c1ccc(-c2ccoc2)cc1 |  | BJ | >20 µM |
| CS(=O)(=O)C1(c2ccc(C(=O)NC34CC(c5nc(-c6ccc(Cl)cn6)cs5)(C3)C4)o2)CC1 | absorbance | Primary human hepatocytes | 31.11 µM |
| Cc1ccc(S(=O)(=O)/N=C2\NC(=O)/C(=C/c3cccnc3)S2)cc1 | MTS | Huh 5-2 | >140 µM |
| COc1ccc(N(C)C(=O)[C@H](Cc2ccccc2)NC(=O)NS(=O)(=O)N[C@@H](Cc2ccccc2)C(=O)N(C)c2ccc(OC)cc2C)cc1 | XTT | MT-2 | 33.3 µM |
| OC[C@H]1O[C@@H](n2ccc3c(-c4cc5ccccc5o4)nc(Cl)nc32)C(O)C1O | MTT | CCRF-CEM leukemia cells | 5.8 µM |
| CO[C@@]1(Cc2ccccc2)NC(=O)[C@](O)(Cc2ccccc2)NC1=O | luminescence | 293T | >100 µM |
| CC(=O)OCC12CCC3C(CCC4CC(O)CCC43C)C1CC(O)C21OC1C(OC(C)=O)C(C)C(C)C(C)(C)OC(C)=O | MTT | HEL | >50 µg/mL |
| O=C(NCCCCl)Oc1ccc(Cl)cc1C(=O)Nc1ccc(C(F)(F)F)cc1 | MTT | Mono Mac 6 | 8.8 µM |
| Cc1ccc(S(=O)(=O)/N=C2\NC(=O)/C(=C/c3ccccc3Cl)S2)cc1 | MTS | Huh 5-2 | 76.1 µM |
| COc1ccc(N(C)C(=O)[C@H](Cc2cc(F)cc(F)c2)NC(=O)c2ccc(F)c(C(=O)N[C@@H](Cc3cc(F)cc(F)c3)C(=O)N(C)c3ccc(OC)c(F)c3)c2)cc1F | XTT | MT-2 | 33.3 µM |
| CC(C)N(Cc1cccc(OCCCCCC(=O)OC(=O)O)c1)C(=O)c1ccc(-c2ccsc2)cc1 |  | BJ | >20 µM |
| CS(=O)(=O)C1(c2ccc(C(=O)NC34CC(c5nc(-c6ccc(Cl)cc6)ns5)(C3)C4)o2)CC1 | absorbance | Primary human hepatocytes | 39.05 µM |
| O=C(NCCCl)Oc1ccc(Cl)cc1C(=O)Nc1ccc(C(F)(F)F)cc1 | MTT | Mono Mac 6 | 7.6 µM |
| Nc1ncnc2c1ncn2[C@@H]1C[C@H](CO)[C@@H](O)[C@@H]1O |  | HELF | 1.2 µg/mL |
| CS[C@@]12CC3C(=O)CC[C@H](O)[C@H]3N1C(=O)[C@@]13C[C@H]4C(=O)C[C@@H](S1)[C@H](O)[C@H]4N3C2=O | luminescence | 293T | >100 µM |
| O=C(NCCCl)Oc1ccc(Br)cc1C(=O)Nc1ccc(C(=O)c2ccccc2)cc1 | MTT | Mono Mac 6 | 24.9 µM |
| Cc1nc(N)nc2c1ccn2[C@@H]1O[C@H](CO)C(O)C1O | MTT | BJ fibroblasts | 75.22 µM |
| O=C(NCCSSCCNC(=O)/C(Cc1ccc(O)c(Br)c1)=N/O)/C(Cc1ccc(O)c(Br)c1)=N\O | XTT | Replicon cells | 22.7 µM |
| COc1c2c(c(OC)c3occc13)OC=C(C=O)C2O |  | HCV replicon cells | 234 µM |
| Cc1ccc(S(=O)(=O)/N=C2\NC(=O)/C(=C/c3ccc(-c4ccccc4)cc3)S2)cc1 | MTS | Huh 5-2 | >115 µM |